Experimental data: patent US10098904B2, “Zidovudine combination therapies for treating microbial infections” (HELPERBY THERAPEUTICS LIMITED, priority 2014, dated 2018)
Where two headings read alike, the source gives them in different places.

Key:
[1] = system: NDM-1 Klebsiella pneumonia BAA2473
[2] = system: NDM-1 Klebsiella pneumonia BAA2472
[3] = drug alone, log phase, 24 hours incubation
[4] = in combination with 2 μg/ml of rifampicin

## Colistin
NDM-1 E. coli BAA2471; [3]
  MIC: 1 µg/mL
NDM-1 E. coli BAA2471; [4]
  MIC of colistin in combination with rifampicin: 0.125 µg/mL
[1]; HT0120663 at 0.25 μg/ml added, compared with rifampicin and colistin combination only
  reduction of colistin MIC: 4 fold
[1]; HT0120663 at 0.5 μg/ml added, compared with rifampicin and colistin combination
  reduction of colistin MIC: 8 fold
[2]; [3]
  MIC: 1 µg/mL
[2]; [4]
  MIC of colistin in combination with rifampicin: 0.125 µg/mL
